Assay results from patent US20180155413A1 (AstraZeneca / MedImmune, published 2018).

Assays:
[1] = biological target: T1, recombinant HA derived from B/Florida/4/2006 of the Yamagata lineage (influenza B virus); assay: ELISA, rHA coated on plate
T1 construct: coated on ELISA plates

[2] = biological target: T2, recombinant HA derived from B/Brisbane/60/2008 of the Victoria lineage (influenza B virus); assay: ELISA, rHA coated on plate
T2 construct: coated on ELISA plates

B1: FBD94 IgG (antibody, V domains shown)
VH: EVQLVESGGGLVQPGRSLRLSCAVSGFIFEDYAINWVRQAPGKGLEWVSIISWDSGRIGYADSVRGRFTISRDNAKNSSFLQMNSLRPEDTAVYYCVKDMLAYYYDGSGIRYNLYGMDVWGQGTTVTVSS
VL: EIVLTQSPATLSLSPGERATLSCRASRSITTFLAWYQQKPGQAPRLLIYDASNRATGVPARFSGSGSGTDFTLTINSLEPDDFAIYYCQQRDHWPPIFGQGTRLEIK
- EC50 [1]: 0.1 nM
- EC50 [2]: 0.09 nM

B2: FBC39 IgG (antibody, V domains shown)
VH: EVQLVVSGGGLVKPGGSLRLSCAASGLSFLNAWMSWVRQAPGKGLEWVGRIKSNTDGGTTDYAAPVKGRFSISRDDSKNMLFLHMSSLRTEDTAVYYCATDGPYSDDFRSGYAARYRYFGMDVWGQGTTVTVSS
VL: DIQMTQSPSSVSASVGDRVTITCRASQDISTWLAWYQQKPGKAPKLLIYAASSLQSGVPSRFSGSGSGTDFTLTISSLQPEDFATYFCQQANSFPPTFGQGTKLEIK
- EC50 [1]: 0.29 nM
- EC50 [2]: 2.07 nM
